Anti-infective test results gathered from many reports (values: NIAID ChemDB through PubChem).

All rows: tests in culture; agent: Candida albicans; measure: MIC

An empty or dashed field is not shown. Conditions beyond the fields shown may differ between rows.

SMILES,strain or isolate,value
NS(=O)(=O)c1ccc(NC(=O)N=Nc2c(O)[nH]c3cc(Cl)ccc23)cc1,-,>1.56 µg/mL
COC(=O)/C=C/C(=O)NCC(NC(=O)[C@@H](N)Cc1ccc(O)cc1)C(=O)O,-,12.5 µg/mL
C[C@H](n1nnc(CCN2CCN(c3ccccn3)CC2)n1)[C@](O)(Cn1cncn1)c1ccc(F)cc1F,-,4 µg/mL
O=C(c1ccccc1)c1cc(Cl)ccc1OCc1n[nH]c(=S)o1,-,6 µM
C[C@@H](n1cnc2c(Br)cc(Br)cc2c1=O)[C@](O)(Cn1cncn1)c1ccc(F)cc1F,76 strains,5 µg/mL
C[C@H](n1nnnc1CCN1CCN(c2ccccn2)CC1)[C@](O)(Cn1cncn1)c1ccc(F)cc1F,V-01-191A-261 (resistant),4 µg/mL
O=C(COc1ccc(Br)cc1)N=Nc1c(O)[nH]c2cccc(Cl)c12,-,>1.56 µg/mL
N=C(N)c1ccc2nc(-c3ccc4oc(-c5ccccc5)cc(=O)c4c3)[nH]c2c1,ATCC 10231,12.5 µg/mL
CCOC1CC([C@H]2O[C@@H]3OC(C)(C)O[C@@H]3[C@H]2OCc2ccccc2)=NO1,-,>50 µg/mL
NC(=O)N=Nc1c(O)[nH]c2cccc(Cl)c12,-,>1.56 µg/mL
C[C@H](n1nnnc1CCN1CCN(C(c2ccccc2)c2ccccc2)CC1)[C@](O)(Cn1cncn1)c1ccc(F)cc1F,V-01-191A-261 (resistant),4 µg/mL
COC(=O)/C=C/C(=O)NCC(N)C(=O)N[C@@H](Cc1ccccc1)C(=O)O,-,3.12 µg/mL
CO[C@@H]1[C@H]2OC(C)(C)O[C@H]2O[C@@H]1C1=NOC(OC(C)=O)C1,-,>50 µg/mL
Cc1ccc(C(=O)NNC(=S)Nn2c(-c3ccccc3)nc3ccccc3c2=O)cc1,ATCC 753,100 µg/mL
CO[C@@H](n1cncn1)[C@@](O)(Cn1cncn1)c1ccc(F)cc1F,-,>100 µg/mL
COc1ccc(OCCCC(Cn2ccnc2)c2ccc(Cl)cc2Cl)cc1,-,10 µg/mL
C[C@H](n1nnnc1CCN1CCN(c2ccccc2)CC1)[C@](O)(Cn1cncn1)c1ccc(F)cc1F,V-01-191A-261 (resistant),8 µg/mL
C[C@@H](N1CCN(c2ccc(-n3cnnn3)cc2)C1=O)[C@@](O)(Cn1cncn1)c1ccc(F)cc1F,IFO 0583,2 µg/mL
Cc1c(O)cccc1C(=O)N[C@@H](CSc1ccccc1)[C@H](O)CN1C[C@H]2CCCC[C@H]2C[C@H]1C(=O)NC(C)(C)C,I96A,64 µg/mL
C[C@H](n1cnc2cc(Cl)ccc2c1=O)[C@](O)(Cn1cncn1)c1ccc(F)cc1F,60 strains,1.25 µg/mL
C[C@@H](N1CCN(c2ccc(-n3cnnn3)cc2)C1=O)[C@](O)(Cn1cncn1)c1ccc(F)cc1F,TIMM1756,4 µg/mL
CS(=O)(=O)c1nnc(-c2ccccc2[N+](=O)[O-])s1,ATCC 10231,25 µg/mL
CCOC(=O)C1CC([C@H]2O[C@@H]3OC(C)(C)O[C@@H]3[C@H]2OCc2ccccc2)=NO1,-,>50 µg/mL
CS[C@@H](n1cncn1)[C@@](O)(Cn1cncn1)c1ccc(F)cc1F,-,>100 µg/mL
C[C@H](n1nnnc1CCN1CCN(c2cccc(Cl)c2)CC1)[C@](O)(Cn1cncn1)c1ccc(F)cc1F,V-01-191A-261 (resistant),4 µg/mL
O=C(/C=C/c1cc(O)ccc1O)c1ccccc1,SDAU1,100 µg/mL
C[C@@H](n1cnc2cc(N3CCN(c4ccc(Cl)cc4)CC3)ccc2c1=O)[C@](O)(Cn1cncn1)c1ccc(F)cc1F,60 strains,≤0.03 µg/mL
CO[C@@H](n1cncn1)[C@](O)(Cn1cncn1)c1ccc(Cl)cc1,-,>100 µg/mL
O=C(c1ccccc1)c1ccc(Br)cc1OCc1n[nH]c(=S)o1,-,3 µM
CC(=O)NNC(=S)Nn1c(-c2ccccc2)nc2ccccc2c1=O,ATCC 753,100 µg/mL
O[C@](Cn1cncn1)(c1ccc(F)cc1F)[C@@H](OCC(F)(F)F)n1cncn1,-,>100 µg/mL
CCS(=O)(=O)c1nnc(Cc2cc([N+](=O)[O-])ccc2-c2ncc[nH]2)s1,ATCC 10231,3.12 µg/mL
CCCCN=C(N)c1ccc2nc(-c3ccc4oc(C)cc(=O)c4c3)[nH]c2c1,ATCC 10231,25 µg/mL
CC1(C)O[C@H]2O[C@H](C3=NOC(Cc4ccc(O)cc4)C3)[C@H](OCc3ccccc3)[C@H]2O1,-,>50 µg/mL
CCC(C)n1ncn(-c2ccc(N3CCN(c4ccc(OC[C@H]5CO[C@](Cn6cncn6)(c6ccc(Cl)cc6Cl)O5)cc4)CC3)cc2)c1=O,ATCC64550,1 µg/mL
C[C@@H](n1cnc2cc(Cl)ccc2c1=O)[C@](O)(Cn1cncn1)c1ccccc1F,60 strains,≤0.03 µg/mL
CO[C@@H](n1cccn1)[C@](O)(Cn1cncn1)c1ccc(F)cc1,-,>100 µg/mL
Cc1ccc(C(=O)c2cc(C)ccc2OCc2n[nH]c(=S)o2)cc1,-,12 µM
Clc1ccc(C(CCOc2ccccc2Cl)Cn2ccnc2)c(Cl)c1,-,>100 µg/mL
C[C@@H](n1cnc2cc(N(C)C)c(F)cc2c1=O)[C@](O)(Cn1cncn1)c1ccc(F)cc1F,76 strains,40 µg/mL
O=S1c2ccccc2SN1C1CC1,10231,25 µg/mL
COC(=O)/C=C/C(=O)NCC(N)C(=O)N[C@@H](CCSC)C(=O)O,-,3.12 µg/mL
CCCSc1nnc(Cc2cc([N+](=O)[O-])ccc2-c2ncc[nH]2)s1,ATCC 10231,>100 µg/mL
C[C@@H]1[C@H](O)[C@@H](C)/C=C/C=C/C=C/C=C/C=C/C=C/C=C/[C@H](OC2O[C@H](C)[C@@H](O)[C@H](N(CCN)CCN)[C@@H]2O)C[C@@H]2O[C@](O)(C[C@@H](O)C[C@@H](O)[C@H](O)CC[C@@H](O)C[C@@H](O)CC(=O)O[C@H]1C)C[C@H](O)[C@H]2C(=O)O,CAF2-1,0.1 µM
O=C(c1ccccc1)c1cc(Cl)ccc1OCc1nnc2n1N=C(c1ccccc1)CS2,-,3 µM
C[C@@H]1[C@H](O)[C@@H](C)/C=C/C=C/C=C/C=C/C=C/C=C/C=C/[C@H](OC2O[C@H](C)[C@@H](O)[C@H](N(CCCN)CCCN)[C@@H]2O)C[C@@H]2O[C@](O)(C[C@@H](O)C[C@@H](O)[C@H](O)CC[C@@H](O)C[C@@H](O)CC(=O)O[C@H]1C)C[C@H](O)[C@H]2C(=O)O,CAF2-1,0.1 µM
Clc1ccc(C(COc2ccccc2Cl)Cn2ccnc2)c(Cl)c1,-,100 µg/mL
CO[C@@H]1[C@H]2OC(C)(C)O[C@H]2O[C@@H]1C1=NOC(CO)C1,-,>50 µg/mL
Clc1ccc(C(COc2ccc(Cl)cc2Cl)Cn2ccnc2)cc1,-,10 µg/mL
Cc1ccc(O)c(C(=O)/C=C/c2ccc(O)cc2O)c1,SDAU4,75 µg/mL
CCCCCCNC(=O)[C@H]1[C@@H]2C[C@@H](OC3O[C@H](C)[C@@H](O)[C@H](N(CCCN)CCCN)[C@@H]3O)/C=C/C=C/C=C/C=C/C=C/C=C/C=C/[C@H](C)[C@@H](O)[C@@H](C)[C@H](C)OC(=O)C[C@H](O)C[C@H](O)CC[C@@H](O)[C@H](O)C[C@H](O)C[C@](O)(C[C@@H]1O)O2,CAF2-1,0.5 µM
CSc1nnc(-c2cc([N+](=O)[O-])ccc2-c2ccco2)s1,ATCC 10231,>100 µg/mL
C[C@@H]1[C@H](O)[C@@H](C)/C=C/C=C/C=C/C=C/C=C/C=C/C=C/[C@H](OC2O[C@H](C)[C@@H](O)[C@H](NCCCN)[C@@H]2O)C[C@@H]2O[C@](O)(C[C@@H](O)C[C@@H](O)[C@H](O)CC[C@@H](O)C[C@@H](O)CC(=O)O[C@H]1C)C[C@H](O)[C@H]2C(=O)O,CAF2-1,0.1 µM
Clc1ccc(OCCC(Cn2ccnc2)c2ccc(Cl)cc2Cl)c(Cl)c1,-,100 µg/mL
COC(=O)/C=C/C(=O)NC[C@@H](NC(=O)[C@@H](C)N)C(=O)O,-,>200 µg/mL
COc1ccc(C(=O)c2cc(C)ccc2OCc2n[nH]c(=S)o2)cc1,-,8 µM
CCCCN=C(N)c1ccc2nc(-c3ccc4oc(-c5ccccc5)cc(=O)c4c3)[nH]c2c1,ATCC 10231,3.12 µg/mL
COc1ccc(OCCC(Cn2ccnc2)c2ccc(Cl)cc2Cl)cc1,-,100 µg/mL
CC(C)NC(=N)c1ccc2nc(-c3ccc(-c4cc(=O)c5cc(-c6nc7ccc(C(=N)NC(C)C)cc7[nH]6)ccc5o4)cc3)[nH]c2c1,ATCC 10231,>50 µg/mL
Clc1ccc(C(CCOc2ccccc2)Cn2ccnc2)c(Cl)c1,-,10 µg/mL
COC(=O)/C=C/C(=O)NCC(NC(=O)[C@@H](N)Cc1ccccc1)C(=O)O,-,3.12 µg/mL
Clc1ccc(C(CCCOc2ccccc2Br)Cn2ccnc2)c(Cl)c1,-,100 µg/mL
O=C(N=Nc1c(O)[nH]c2cccc(Cl)c12)Nc1ccccc1Cl,-,>1.56 µg/mL

Again, the opening 4 rows:

NS(=O)(=O)c1ccc(NC(=O)N=Nc2c(O)[nH]c3cc(Cl)ccc23)cc1 ; value: >1.56 µg/mL
COC(=O)/C=C/C(=O)NCC(NC(=O)[C@@H](N)Cc1ccc(O)cc1)C(=O)O ; value: 12.5 µg/mL
C[C@H](n1nnc(CCN2CCN(c3ccccn3)CC2)n1)[C@](O)(Cn1cncn1)c1ccc(F)cc1F ; value: 4 µg/mL
O=C(c1ccccc1)c1cc(Cl)ccc1OCc1n[nH]c(=S)o1 ; value: 6 µM